Anti-infective test results gathered from many reports (values: NIAID ChemDB through PubChem).

All rows: growth or infection tests

Neighbouring rows are from separate reports.

SMILES | agent | strain or isolate | changes | read by | setting | endpoint | value
COc1c(N2CC(C)NC(C)C2)c(F)cc2c(=O)c(C(=O)O)cn(C3CC3)c12 | Mycobacterium smegmatis | KD1990 (GYRA D95A) | - | - | - | MIC99 | 0.28 µg/mL
CO[C@H]1/C=C/O[C@@]2(C)Oc3c(C)c(O)c4c(O)c(c5c(c4c3C2=O)NC2(CCN(CC(C)C)CC2)N=5)=NC(=O)/C(C)=C\C=C\[C@H](C)[C@H](O)[C@@H](C)[C@@H](O)[C@@H](C)[C@H](OC(C)=O)[C@@H]1C | Mycobacterium avium complex | 9838 | - | - | - | MBC | 16 µg/mL
O=C(Nc1ccc(Cl)c(Cl)c1)c1cc(Cl)ccc1OP(=O)(c1ccccc1)c1ccccc1 | Mycobacterium kansasii | My 235/80 | - | - | 14 d | MIC | 8 µM
CCN1CCN(c2c(F)cc3c(=O)c(C(=O)O)cn(C4CC4)c3c2OC)CC1 | Mycobacterium smegmatis | KD1998 (GYRA D95N) | - | - | - | MIC99 | 1.2 µg/mL
CCOc1cc(Cc2cnc(N)nc2N)cc(OCC)c1-n1cccc1 | Mycobacterium ulcerans | ATCC 35840 | - | - | - | MIC | 0.5 µg/mL
CCCn1cc(/C=N/NC(=S)NN)c2ccccc21 | Mycobacterium bovis BCG | 1173P2 | - | broth dilution | 48 h | MIC100 | >500 µg/mL
O=C1c2cc(Cl)ccc2OP(=O)(c2ccccc2)N1c1ccc(C(F)(F)F)cc1 | Mycobacterium kansasii | My 6509/96 | - | - | 21 d | MIC | 8 µM
CC1CN(c2cc3c(cc2F)c(=O)c(C(=O)O)cn3C2CC2)CC(C)N1 | Mycobacterium smegmatis | KD2008 (GYRA G89C) | - | - | - | MIC99 | 3.8 µg/mL
O=C(Nc1ccc(Cl)cc1)c1cc(Cl)ccc1OP(=O)(OCc1ccccc1)OCc1ccccc1 | Mycobacterium kansasii | My 6509/96 | - | - | 7 d | MIC | 16 µM
COc1c(N2CCNCC2)c(F)cc2c(=O)c(C(=O)O)cn(C3CC3)c12 | Mycobacterium smegmatis | KD1163 (GRYA+) | - | - | - | MIC99 | 0.14 µg/mL
CC[C@@H](C(=O)[C@@H](C)[C@@H](O)[C@H](C)[C@@H]1O[C@@H]([C@@H](CC)C(=O)O)CC[C@@H]1C)[C@H]1O[C@@]2(C=C[C@@H](O)[C@@]3(CC[C@@](C)([C@H]4CC[C@](O)(CC)[C@H](C)O4)O3)O2)[C@H](C)C[C@@H]1C | Mycobacterium aurum | - | G364T | resazurin | - | MIC | 0.08 µg/mL
CCCCCn1cc(/C=N/Nc2nncs2)c2ccccc21 | Mycobacterium bovis BCG | 1173P2 | - | broth dilution | 24 h | MIC100 | 3.91 µg/mL
COc1c(N2CCNC(C)C2)c(F)cc2c(=O)c(C(=O)O)cn(C3CC3)c12 | Mycobacterium smegmatis | KD2012 (GYRA G89A) | - | - | - | MIC99 | 0.18 µg/mL
O=C(Nc1ccc(C(F)(F)F)cc1)c1cc(Cl)ccc1OP(=O)(c1ccccc1)c1ccccc1 | Mycobacterium kansasii | My 235/80 | - | - | 14 d | MIC | 4 µM
CCN(CC)c1nc2c(s1)c1c(O)c3c(O)c(C)c4c(c32)C(=O)[C@@](C)(O/C=C/[C@H](OC)[C@@H](C)[C@@H](OC(C)=O)[C@H](C)[C@H](O)[C@H](C)[C@@H](O)[C@@H](C)/C=C/C=C(/C)C(=O)N1)O4 | Mycobacterium avium | 211-5 | - | - | - | MBC | 16 µg/mL
NNC(=S)N/N=C/c1cn(Cc2ccc(F)cc2)c2ccccc12 | Mycobacterium bovis BCG | 1173P2 | - | broth dilution | 24 h | MIC100 | >500 µg/mL
CO[C@@H]1C[C@@H](C[C@H]2CC[C@H](C)[C@H]([C@@H](C)C(=O)O)O2)O[C@]2(O[C@](C)([C@H]3CC[C@@](C)([C@@H]4O[C@@H]([C@H]5O[C@@](O)(CO)[C@H](C)C[C@@H]5C)C[C@@H]4C)O3)C[C@H]2C)[C@@H]1C | Mycobacterium aurum | - | C410 deletion | resazurin | - | MIC | 0.32 µg/mL
CN(C)c1cc(NC(=O)CNC(C)(C)C)c(O)c2c1C[C@H]1C[C@H]3[C@H](N(C)C)C(=O)C(C(N)=O)=C(O)[C@@]3(O)C(=O)C1=C2O | Mycobacterium abscessus | V133 | - | broth dilution | - | MIC | 0.25 µg/mL
O=C(Nc1ccc(Br)cc1)c1cc(Cl)ccc1OP(=O)(Oc1ccccc1)Oc1ccccc1 | Mycobacterium kansasii | My 6509/96 | - | - | 7 d | MIC | 8 µM
Fc1ccc(Cn2cc(/C=N/Nc3nncs3)c3ccccc32)cc1 | Mycobacterium bovis BCG | 1173P2 | - | broth dilution | 24 h | MIC100 | 3.91 µg/mL
O=C(Nc1ccc(Cl)cc1)c1cc(Cl)ccc1OP(=O)(c1ccccc1)c1ccccc1 | Mycobacterium kansasii | My 235/80 | - | - | 14 d | MIC | 8 µM
COc1cc(Cc2cnc(N)nc2N)cc(OC)c1OC | Mycobacterium ulcerans | Isolate 8756 | - | - | - | MIC | >16 µg/mL
O=C1c2cc(Cl)ccc2OP(=O)(c2ccccc2)N1c1ccc(Cl)c(Cl)c1 | Mycobacterium kansasii | My 235/80 | - | - | 14 d | MIC | 8 µM
CC[C@H]1OC(=O)[C@H](C)[C@@H](O[C@H]2C[C@@](C)(OC)[C@@H](O)[C@H](C)O2)[C@H](C)[C@@H](O[C@@H]2O[C@H](C)C[C@H](N(C)C)[C@H]2O)[C@](C)(OC)C[C@@H](C)C(=O)[C@H](C)[C@@H](O)[C@]1(C)O | Mycobacterium abscessus | - | - | broth dilution | - | MIC90 | 4 µg/mL
CC(C)N1CCN(c2cc3c(cc2F)c(=O)c(C(=O)O)cn3C2CC2)CC1 | Mycobacterium smegmatis | KD1990 (GYRA D95A) | - | - | - | MIC99 | 1.5 µg/mL
O=C(Nc1ccccc1)c1ccccc1OP(=O)(c1ccccc1)c1ccccc1 | Mycobacterium kansasii | My 235/80 | - | - | 7 d | MIC | 62.5 µM

Again, the opening 4 rows:

SMILES | agent | strain or isolate | changes | read by | setting | endpoint | value
COc1c(N2CC(C)NC(C)C2)c(F)cc2c(=O)c(C(=O)O)cn(C3CC3)c12 | Mycobacterium smegmatis | KD1990 (GYRA D95A) | - | - | - | MIC99 | 0.28 µg/mL
CO[C@H]1/C=C/O[C@@]2(C)Oc3c(C)c(O)c4c(O)c(c5c(c4c3C2=O)NC2(CCN(CC(C)C)CC2)N=5)=NC(=O)/C(C)=C\C=C\[C@H](C)[C@H](O)[C@@H](C)[C@@H](O)[C@@H](C)[C@H](OC(C)=O)[C@@H]1C | Mycobacterium avium complex | 9838 | - | - | - | MBC | 16 µg/mL
O=C(Nc1ccc(Cl)c(Cl)c1)c1cc(Cl)ccc1OP(=O)(c1ccccc1)c1ccccc1 | Mycobacterium kansasii | My 235/80 | - | - | 14 d | MIC | 8 µM
CCN1CCN(c2c(F)cc3c(=O)c(C(=O)O)cn(C4CC4)c3c2OC)CC1 | Mycobacterium smegmatis | KD1998 (GYRA D95N) | - | - | - | MIC99 | 1.2 µg/mL

An empty or dashed field is not shown. MIC50, MIC90 and the like: level of inhibition, or share of isolates inhibited.